The target in this test is Replicase polyprotein 1ab (Severe acute respiratory syndrome coronavirus 2) (UniProt P0DTD1). As to conditions: time 50.0 min.

Molecules are shown by their SMILES.

The values that follow come from ChEMBL document CHEMBL6078649, “Discovery of Chalcone Derivatives as Bifunctional Molecules with Anti-SARS-CoV-2 and Anti-inflammatory Activities” (J Nat Prod, 2024).

As to `O=C(/C=C/c1cc(O)c(O)c(O)c1)c1ccc(F)cc1`, the Kinact is 4.5 10^-2/min.
